A mixed list of measured activities; the numbers were collected in NIAID ChemDB.

All rows: whole-cell or culture tests; organism: Candida albicans

Rows are shuffled and stem from different studies. Inhibition is in % at the dose shown (toxicity tests: loss of growth or viability). Blank or dashed fields: not listed here. A number after MIC or MFC names an inhibition level or a share of isolates. ECn: concentration that inhibits the pathogen or its effect by n%.

compound	strain or isolate	read by	setting	endpoint	tested at	value
Nc1[nH]c(=O)ncc1F	15 isolates	broth dilution	pH 5	EC90	-	0.25 µg/mL
C[C@@H](N1CCN(Cc2cn(-c3ccc(F)cc3)c3ccccc23)CC1)[C@](O)(Cn1cncn1)c1ccc(F)cc1F	ATCC 90028	resazurin	-	MIC80	-	0.125 µg/mL
CC(C)(O)c1cn(-c2ccc([N+](=O)[O-])cc2)nn1	URM 4387	broth dilution	-	inhibition	2048 µg/mL	0%
CCC(C)n1ncn(-c2ccc(N3CCN(c4ccc(OC[C@H]5CO[C@](Cn6cncn6)(c6ccc(Cl)cc6Cl)O5)cc4)CC3)cc2)c1=O	10 isolates	broth dilution	pH 7	EC90	-	0.03 µg/mL
OC(CN1CCN(c2ccc(OCc3ccncc3)cc2)CC1)(Cn1cncn1)c1ccc(F)cc1F	FH5	-	-	MIC80	-	0.25 µg/mL
C[C@H]1[C@H](O)[C@@H](C)/C=C/C=C/C=C/C=C/C=C/C=C/C=C/[C@H](O[C@@H]2O[C@H](C)[C@@H](O)[C@H](N)[C@@H]2O)C[C@@H]2O[C@](O)(C[C@@H](O)C[C@@H](O)CC[C@H](O)[C@@H](O)C[C@@H](O)CC(=O)O[C@H]1C)C[C@H](O)[C@H]2C(=O)O	Fluconazole-resistant 4 isolates pooled	-	-	MFC90	-	2 µg/mL
C[C@@H](N1CCN(Cc2cn(Cc3ccc(F)cc3)c3c(Cl)cccc23)CC1)[C@](O)(Cn1cncn1)c1ccc(F)cc1F	ATCC 90028	resazurin	-	MIC80	-	2 µg/mL
NCCCC[C@H](NC(=O)[C@H](CCCN=C(N)N)NC(=O)[C@H](CCCN=C(N)N)NC(=O)[C@H](CCCCN)NC(=O)[C@H](CCCCN)NC(=O)[C@@H](N)CCCCN)C(=O)N[C@@H](CCCN=C(N)N)C(=O)O	ATCC 10231	-	-	inhibition	12.5 µM	0%
Cc1ccc(-n2cc(C(C)(C)O)nn2)cc1C	URM 4384	broth dilution	-	inhibition	2048 µg/mL	0%
C=CCc1ccc(OC)c(OC)c1	3034	turbidity	-	MIC90	-	350 µg/mL
NC(=NC1CCCC1)c1ccc(-c2ccc(-c3ccc(C(N)=NC4CCCC4)cc3)o2)cc1	Isolate 3022 fluconazole-resistant	-	-	MFC	-	25 µg/mL
C[C@@H](N1CCN(Cc2cn(Cc3cccc(C(F)(F)F)c3)c3c(F)cccc23)CC1)[C@](O)(Cn1cncn1)c1ccc(F)cc1F	ATCC MYA-1003	resazurin	-	MIC80	-	>128 µg/mL
C[C@@H](c1ncncc1F)[C@](O)(Cn1cncn1)c1ccc(F)cc1F	10 isolates	broth dilution	pH 4	EC90	-	>16 µg/mL
CC(O)Cc1ccc(Cn2cc(CN3CCN([C@H](C)[C@](O)(Cn4cncn4)c4ccc(F)cc4F)CC3)c3cccc(F)c32)cc1	ATCC 64548	resazurin	-	MIC80	-	2 µg/mL
CC(C)(O)c1cn(-c2ccc3ccccc3c2)nn1	URM 4987	broth dilution	-	inhibition	2048 µg/mL	0%
C=CCn1cc(CN2CCN([C@H](C)[C@](O)(Cn3cncn3)c3ccc(F)cc3F)CC2)c2ccc(Cl)cc21	ATCC 64548	resazurin	-	MIC80	-	0.125 µg/mL
CCC(C)CC(C)CCCCCCCCC(=O)N[C@H]1C[C@@H](O)[C@H](NCCN)NC(=O)[C@@H]2[C@@H](O)CCN2C(=O)[C@H]([C@H](O)CCN)NC(=O)[C@H]([C@H](O)[C@@H](O)c2ccc(O)cc2)NC(=O)[C@@H]2C[C@@H](O)CN2C(=O)[C@H]([C@@H](C)O)NC1=O	15 isolates	broth dilution	pH 6	EC90	-	0.125 µg/mL
C=CCc1ccc(Cn2cc(CN3CCN([C@H](C)[C@](O)(Cn4cncn4)c4ccc(F)cc4F)CC3)c3cccc(F)c32)cc1	ATCC 36082	resazurin	-	MIC80	-	4 µg/mL
CC(C)(O)c1cn(-c2cccc3ccccc23)nn1	URM 4386	broth dilution	-	inhibition	2048 µg/mL	0%

The last 2 rows once more:

C=CCc1ccc(Cn2cc(CN3CCN([C@H](C)[C@](O)(Cn4cncn4)c4ccc(F)cc4F)CC3)c3cccc(F)c32)cc1 ; strain or isolate: ATCC 36082 ; read by: resazurin ; endpoint: MIC80 ; value: 4 µg/mL
CC(C)(O)c1cn(-c2cccc3ccccc23)nn1 ; strain or isolate: URM 4386 ; read by: broth dilution ; endpoint: inhibition ; tested at: 2048 µg/mL ; value: 0%